In EP4847047A1, “CONJUGATE, PREPARATION METHOD THEREFOR, AND USE THEREOF” (dated 2026):
Structures were worked out from names or drawings and are uncertain.

Tests used:
A/Shanghai/02/2013(H7N9) = experiment: In vitro anti-influenza virus activity (CPE inhibition) in infected MDCK cells
[1] = system: A/California/04/2009(H1N1); experiment: as above
A/Vietnam/2004(H5N1) = experiment: as above
[2] = system: influenza virus (A/California/07/2009); experiment: In vivo anti-influenza virus activity in severe influenza DBA/2 mouse model; details: DBA/2 mice, 1×10^4 PFU; zanamivir 5 mg/kg i.v. once daily, oseltamivir phosphate 20 mg/kg oral twice daily, 5 consecutive days

| SMILES | EC50 (A/Shanghai/02/2013(H7N9)) [nM] | EC50 [1] [nM] | EC50 (A/Vietnam/2004(H5N1)) [nM] | survival of mice receiving positive control drugs [2] |
| --- | --- | --- | --- | --- |
| CCC(CC)[C@H](NC(C)=O)[C@@H]1[C@H](O)[C@@H](C(=O)O)C[C@H]1N=C(N)N | 88.9 | 122 | 300 | – |
| CCOC(=O)C1=C[C@@H](OC(CC)CC)[C@H](NC(C)=O)[C@@H](N)C1 | – | – | – | died |
